PubChem BioAssay AID504761, Drosophila RNAi Screening Center – 2011

Assay: 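Genome-wide fly cell screen for genes dengue virus requires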 (primary screen)
System: D.Mel-2 cells from Drosophila
Reagents: long dsRNA against Drosophila genes
Conditions: infection with dengue virus type 2; dose and infection time not stated
Measurement: 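Cells stained for dengue envelope protein and imaged; percent of infected cells per well on duplicate plates, ranked by infection, with stained nuclei counted for cell number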
Reading the numbers: infection score: higher = more virus-infected cells; cell count: higher = more cells in the well
Call rule: 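Low infection ranks in the two replicates (chance level up to 0.065) followed by a retest with a 1.5-fold or larger significant decrease, p below 0.05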
Calls: active = confirmed: knock-down lowers infection; inactive = not picked or not confirmed
The deposit covers about 22,000 reagents; this is an unselected part of those that have a named target and a result. Over the whole deposit, 116 (0.52%) were called active. 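Calls depend on retest data that are not deposited; infection was ranked per plate without normalising between plates; the unit of the infection score is not given.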 Raw values vary from plate to plate and are shown uncorrected. A plus sign joins genes that one reagent is predicted to hit. No sequences are given here. Not given: the amount of reagent, the time to read-out.

no.	gene	PubChem SID	infection score, replicate 1	infection score, replicate 2	cell count, replicate 1	cell count, replicate 2	activity call
1	CG1571	SID104197860	2.39	1.65	6247	6624	inactive
2	CG8326	SID104199895	1.39	1.19	6407	6069	inactive
3	CG8326	SID104206912	29.1	16.3	4414	5484	inactive
4	CG16853	SID104181669	2.9	3.71	6926	7276	inactive
5	Cfp1	SID104197920	28.2	21.5	5401	3270	inactive
6	Rheb	SID104191940	4.06	13	6899	5511	inactive
7	Nlg2	SID104183370	1.21	3.65	5961	6653	inactive
8	Nlg2	SID104203763	3.05	4.99	5993	6175	inactive
9	CG9921	SID104200012	12.5	7.6	6683	6728	inactive
10	X11Lbeta	SID104197948	9.25	15	2399	1494	inactive
11	X11Lbeta	SID104197950	4.35	4.46	6317	5579	inactive
12	X11Lbeta	SID104208077	12	3.63	5373	1734	inactive
13	CG34178 + CG34177	SID104180143	3.34	5.59	6528	7008	inactive
14	CG11619	SID104189641	4.9	2.27	6980	7104	inactive
15	GMF	SID104181720	29.4	16.2	5879	5890	inactive
16	RpS20	SID104196628	1.66	18	6139	2452	inactive
17	Tsp42Ed	SID104185732	20	11.7	5294	5703	inactive
18	Csas	SID104201869	0.6	0.98	5968	6941	inactive
19	CG3610	SID104195294	8.79	27.9	6793	4584	inactive
20	CG3610	SID104205883	12.3	2.2	6703	6493	inactive
21	Ran-like	SID104190710	11.6	16.9	1971	6108	inactive
22	RpS3	SID104196630	3.41	8.52	1967	1455	inactive
23	CG2006 + Spase12	SID104194108	9.62	1.46	5621	6895	inactive
24	CG14634	SID104197736	7.85	6.91	1808	2069	inactive
25	nyo	SID104194821		1.84	342	6635	inactive
26	nyo	SID104194822	6.34	1.49	2825	6728	inactive
27	tim	SID104180633	1.12	2.64	6489	5878	inactive
28	CG33307	SID104181141	1.74	3.36	4258	3899	inactive
29	GC	SID104188188	1.41	0.9	6110	6428	inactive
30	GC	SID104205766	2.17	4.96	6741	6050	inactive
31	Rrp46	SID104195329	8.78	26.1	7059	5909	inactive
32	Oseg2	SID104188135	5.13	1.44	6068	6607	inactive
33	CG15772	SID104197870	2.36	1.34	6695	6921	inactive
34	CG2321	SID104195231	6.37	4.06	6282	6551	inactive
35	Targ	SID104185998	4.48	8.4	6713	6097	inactive
36	Uch-L5R	SID104199617	3.58	4.88	6430	6838	inactive
37	Past1	SID104196576	1.09	16.5	6801	4319	inactive
38	EMC3	SID104182781	3.11	3.32	6686	6587	inactive
39	EMC3	SID104206558	9.08	18.1	6026	5643	inactive
40	CG7924	SID104190723	5.16	12.6	5488	5378	inactive
41	CG7924	SID104204205	4.39	4.56	6832	6332	inactive
42	sano	SID104185957	10.2	23.7	3517	5651	inactive
43	sano	SID104204851	5.7	5.6	5927	5998	inactive
44	CG12826	SID104185967	5.1	13.5	6280	5700	inactive
45	Camta	SID104187064	29.7		5188		inactive
46	Camta	SID104202438	1.72	13.6	5882	6059	inactive
47	Camta	SID104202513	2.02	4.16	7037	6806	inactive
48	Camta	SID104205301	3.73	0.73	6356	6151	inactive
49	Camta	SID104206473	27.4	17.8	5245	5497	inactive
50	Pex7	SID104190443	4.5	1.35	5847	6505	inactive
51	l(3)neo38	SID104194738	2.67	13.2	6138	6400	inactive
52	l(3)neo38	SID104195930	4.17	1.53	6361	6410	inactive
53	l(3)neo38	SID104202619	2.36	30.4	6155	6078	inactive
54	l(3)neo38	SID104205656	26.7	28.6	5885	4869	inactive
55	l(3)neo38	SID104206212	5.11	8.01	6051	5929	inactive
56	CG13721	SID104188122	3.17	1.97	5898	6035	inactive
57	CG12715	SID104199284	0.29	2.25	5432	5862	inactive
58	toe	SID104188966	1.6	0.69	6269	6251	inactive

Looked up above:
CG3610 [SID104205883], infection score, replicate 1: 12.3
Entry for Ran-like [SID104190710] in “cell count, replicate 2”: 6108
For “activity call”, CG9921 [SID104200012] reads inactive
Value for CG15772 [SID104197870] in “cell count, replicate 2”: 6921
